We go through 13 molecules from the supplement of paper PMC9931576.

Positions count from the first letter of the chain named. Human monoclonal antibodies against the spike receptor-binding domain (heavy:light variable regions). IC50 against pseudoviruses bearing the spike of naturally observed variants; lower = stronger; >10 µg/ml means not reached at the top dose. No active / inactive call. The stated detection limit is 0.0005 µg/ml; values near or below 0.001 µg/ml lie at the floor of the assay.

The chains are these.
B1: BD56-1738 (protein)
chain 1: EVQLVESGGGLVQPGGSLRLSCAASGFSFSNYDMHWVRQVTGKGLEWVSTIGTSGDTYYSDSVKGRFTISRENAKNSLYLQMNSLRVGDTAVYYCARVTYDSYNYRFWFDTWGQGTLVTVST
chain 2: DIQMTQSPSSLSASVGDRVTITCRASQSISNYLNWYQQKPGKAPKLLIYAASSLQSGVPSRFSASGSGTKFTLTINSLQPEDYAIYYCQQSYSSPPITFGQGTRLDIK
B2: BD56-1731 (protein)
chain 1: QVQLVESGGGVVQPGRSLRLACGVSGFSFSNYGMHWVRQAPGKGLDWVAVIGSDGTSKFYADSVKGRFTISRDNSKNTLYLQMNTLRVEDTAVYYCVKESDYDILTGGPFDYWGQGTLVTVSS
chain 2: DIQMTQSPSSLSASVGDRVTITCRATLGIRNSIAWYQQKPGKAPKLLLYAASRLESGVPSRFSGSGSGTDYTLTISSLQPEDFATYYCQQYHSSPPLTFGQGTKLEIK
B3: BD56-1732 (protein)
chain 1: QVQLVHSGAQVKKPGASVKVSCKASGYTFSSHGIIWVRQAPGHGLEWMGWISAYNGNTKYAQKFQDRLTMTTDTSTTTATMELRSLRSDDTAVYYCARVKGIWFGVDYWGQGTLVTVSS
chain 2: NFMLTQPHSVSESPGKTVTISCTGSSGSIATNYVHWYQQRPGSAPTTIISEDNRRPSGVPDRFSGSVDSSSNSASLTISGLKTEDEADYYCQSYDGTGVVFGGGTKLTVL
B4: BD56-1736 (protein)
chain 1: QVQLQESGPGLVKPSQTLSLTCSVSGGSISSGTYYWSWIRQPAGKGLEWIGRIYTSGSANYTPSLKSRITISVDTSKNQFSLKLNSVTAADTAVYYCACGGDFRYFDLWGRGTLITVSS
chain 2: B3 chain 2 with G24R, T31G, H35Q, I48L, S50Y, R54L, V67I, D95N, T97G, G98N
B5: BD56-1745 (protein)
chain 1: QLQVQESGPGLVKPSETLSLTCTVSGGFISSSTYYWGWIRQPPGKGLEWIGSFFYTGTTFYNPSLKSRLTISVDTSKNHFSVRLISVTAADTAIYFCVRHGTRLAVADSFDYWGQGTLVTVSS
chain 2: QSVLTQPPSVSGAPGQRVTLSCTGSSSNIGAGFHVHWYRQLPGTAPKLLIFANNIRPSGVPDRFAGSTSGTSASLAITGLQADDEADYYCQSFDNSLSVWVFGGGTKLTVL
B6: BD56-1741 (protein)
chain 1: EVQLVESGGGLVQPGGSLRLSCAGSGFTFSSYDMHWVRQVTGKGLEWVSTIGSVGDTYYPDSVKGRFTISRENVKNSLYLQMNSLRGGDMAVYYCARGGRSYPRGNWYFDLWGRGTLVSVSS
chain 2: DIQMTQSPSSLSASVGDRITITCRASQSISNFLNWYQQKPGKAPKLLIYGASSLQSGAPSRFSGSGSGTHFTLTISSLQPEDFATYYCQQCYSSPPITFGQGTRLDVK
B7: BD56-1737 (protein)
chain 1: QVQLVQSGAEVKKPGASVKVSCKASGHTFITYTINWVRQAPGQGLEWMGWISAYDGKTNYAQNFQGRVTMTTDTSTNTAHMELRSLRSDDTAVYYCTFGDYAPHFFDYWGQGTLVTVSS
chain 2: EIVLTQSPGTLSLSPGERATLSCRASQSVSSTFLGWYQQKPGQAPRLLIYGASNRATGIPDRFSGSGSGTEFTLTISRLEPEDFAVYYCQQYGNSPLTFGGGTKVEVK
B8: BD56-1733 (protein)
chain 1: QVQLVQSGAEVKKPGSSVKVSCKASGGTFSSYTISWVRQAPGQGLEWMGNIMPILGIANYAQKFQGRVTIIADKSTSTAYMELSSLRSEDTAFYYCAGDLSSGWLFDNWGQGTLVTVSS
chain 2: QSVLTQPPSVSGAPGQRVTISCTGSNSNIGAGYDVHWYQQLPGTAPKLLIYGNNNRPSGVPDRFSGSKSGTSASLAITGLQAEDEADYFCQAYDSSLIGPVFGGGTKLTVL
B9: BD56-1759 (protein)
chain 1: QVTVKEAGPVLVKPTETLTLTCTVSGFSLSNARVGVSWIRQPPGKALEWLAQIFSNDEKSYSTSLKTRLTIFKDTSKSQVVLTMTNMDPADTATYYCALMRVADSSGYYGADWFDPWGQGTLVTVSS
chain 2: DIQMTQSPSSLSASVGDRVTITCRASQSISSYLNWYQQKPGKAPKVLIYAVSRLESGVPSRFSGSGSGTDFTLTISSLQPEDFATYYCQQSYSTLMYTFGQGTKLEMK
B10: BD56-1743 (protein)
chain 1: EVQLVESGGGLVQPGGSVRLSCAASGVTVSRNYMTWVRQAPGKGPEWVSVMYSGGSTFYADSVKGRFTVSRHDSKNTLYLQMNSLRQEDTAVYYCARDLVEAGAIDVWGRGTMVIVSS
chain 2: DIQMTQSPSSLSASVGDRVTITCRASEDIANSLAWYQQKPGKAPKLLLYAASTLQSGVPSRFSGSGSGTDYTLTISGLQPEDSATYYCQQYSTTLMYTFGQGTKLEIK
B11: BD56-1753 (protein)
chain 1: EVRLVESGGGLVQPGGSLRLSCAASGFTFSNDDFHWVRQIRGKGLEWVSGIGTSGDTYYSDSVKGRFTVSRENGRHSSYLQMNSLRVGDTAVYYCARGVSRDLWYFFDYWGQGALVTVSS
chain 2: DIQMTQSPSSLSASVGDRVTITCRASQSVNGYLNWYQQKPGKAPKLLIYAASHLQTGVPSRFSGSGSGTDYTLTISSLLPEDFAIYFCQQSYGAPPWTFGPGTKVEIK
B12: BD56-1739 (protein)
chain 1: QVQLQESGPGLVKPSQTLSLTCALSGVSISSGTYYWSWIRQPAGKGLEWIGRIYTSGSANYNPSFKSRVTISVDTSKNQISLKLSSVTAADTAVYFCACGGDFRYFDFWGRGTLVTVSS
chain 2: NFMLTQPHSVSESPGKTVTISCSRSSGSIAGNFVQWYQQRPGSAPTTVIYEDNERPSGVPDRFSGSIDSSSNSASLTISGLKTEDEADYYCQSWHSSSVIFGGGTKLTVL
B13: BD56-1756 (protein)
chain 1: B12 chain 1 with V27A, A59V, P63S, K83R, S85T
chain 2: B12 chain 2

The target in the first test is SARS-CoV-2 Omicron BA.1 spike pseudovirus. Description: pseudovirus neutralization IC50; higher = weaker neutralization. The method, then:
(§1)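 Single-round VSV luciferase pseudovirus mixed with antibody dilutions for 1 h and put on Huh-7 cells for about a day; IC50 from the dose curve.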
With B1, the “pseudovirus neutralization IC50” value was above 10 µg/mL.
Same read-out and setting: then B2, with 3.7 µg/mL; and B3, with 1.08 µg/mL.
Turning to B4, the “pseudovirus neutralization IC50” value is 0.0809 µg/mL.
The same measure, in the same setting: then B5, with above 10 µg/mL.
On the same count and under the same terms, then B6, with above 10 µg/mL; and B7, with 0.058 µg/mL; and B8, with above 10 µg/mL.
On the same count and under the same terms, then B9, with 1.17 µg/mL.
Take B10: the “pseudovirus neutralization IC50” value was 0.00089 µg/mL.
As to B11, the “pseudovirus neutralization IC50” value was above 10 µg/mL.
The same measure, in the same setting: in the case of B12 it was 0.0985 µg/mL.
Same read-out and setting: in the case of B13 it was 0.368 µg/mL.

The target in a further test is SARS-CoV-2 Omicron BA.2 spike pseudovirus. The description is as above. The procedure:
as §1
B1: the “pseudovirus neutralization IC50” value was above 10 µg/mL.
B2: the “pseudovirus neutralization IC50” value is 3.51 µg/mL.
Still for that read-out and setting: in the case of B3 it was 2.53 µg/mL; in that of B4, 0.0553 µg/mL.
In the case of B5, the “pseudovirus neutralization IC50” value is above 10 µg/mL.
Same read-out and setting: then B6, with above 10 µg/mL; and B7, with 0.0571 µg/mL.
Same read-out and setting: in the case of B8 it was above 10 µg/mL.
Same read-out and setting: in the case of B9 it was 0.00384 µg/mL; in that of B10, 0.000921 µg/mL.
For B11, the “pseudovirus neutralization IC50” value is above 10 µg/mL.
The same measure, in the same setting: in the case of B12 it was 0.0663 µg/mL; in that of B13, 0.146 µg/mL.

Another test deals with SARS-CoV-2 Omicron BA.2.75 spike pseudovirus. The test is described as above. The procedure: as §1
Consider B1, for which the “pseudovirus neutralization IC50” value is above 10 µg/mL.
Still for that read-out and setting: then B2, with 3.6 µg/mL; and B3, with 5.82 µg/mL; and B4, with 0.062 µg/mL.
The same measure, in the same setting: in the case of B5 it was above 10 µg/mL; in that of B6, above 10 µg/mL.
The same measure, in the same setting: in the case of B7 it was 0.274 µg/mL; in that of B8, above 10 µg/mL; in that of B9, 0.169 µg/mL.
Turning to B10, the “pseudovirus neutralization IC50” value is 0.00491 µg/mL.
As to B11, the “pseudovirus neutralization IC50” value is above 10 µg/mL.
On the same count and under the same terms, then B12, with 0.0415 µg/mL; and B13, with 0.0492 µg/mL.

A further test has as its target SARS-CoV-2 Omicron BA.5 spike pseudovirus. Described as above. The procedure: as §1
For the molecule B1, the “pseudovirus neutralization IC50” value was above 10 µg/mL.
The same measure, in the same setting: in the case of B2 it was 5.34 µg/mL; in that of B3, 3.57 µg/mL; in that of B4, 4.96 µg/mL.
Turning to B5, the “pseudovirus neutralization IC50” value was above 10 µg/mL.
Still for that read-out and setting: then B6, with above 10 µg/mL.
On the same count and under the same terms, then B7, with 0.32 µg/mL; and B8, with above 10 µg/mL.
Take B9: the “pseudovirus neutralization IC50” value was above 10 µg/mL.
The same measure, in the same setting: then B10, with 0.0025 µg/mL; and B11, with above 10 µg/mL; and B12, with above 10 µg/mL.
On the same count and under the same terms, in the case of B13 it was above 10 µg/mL.

A further test concerns the target SARS-CoV-2 Omicron BQ.1.1 spike pseudovirus. Described as above. The method, then:
as §1
Regarding B1, the “pseudovirus neutralization IC50” value was above 10 µg/mL.
The same measure, in the same setting: in the case of B2 it was 8.69 µg/mL; in that of B3, 5.24 µg/mL.
The same measure, in the same setting: then B4, with above 10 µg/mL; and B5, with above 10 µg/mL; and B6, with above 10 µg/mL.
Still for that read-out and setting: then B7, with above 10 µg/mL.
For B8, the “pseudovirus neutralization IC50” value is above 10 µg/mL.
With B9, the “pseudovirus neutralization IC50” value is above 10 µg/mL.
Still for that read-out and setting: in the case of B10 it was 5.75 µg/mL.
Consider B11, for which the “pseudovirus neutralization IC50” value was above 10 µg/mL.
The same measure, in the same setting: in the case of B12 it was above 10 µg/mL; in that of B13, above 10 µg/mL.

The next test addresses SARS-CoV-2 Omicron XBB spike pseudovirus. The test is described as above. The method, then:
as §1
In the case of B1, the “pseudovirus neutralization IC50” value is above 10 µg/mL.
As for B2, the “pseudovirus neutralization IC50” value was determined as 8.71 µg/mL.
The same measure, in the same setting: then B3, with 4.37 µg/mL; and B4, with above 10 µg/mL; and B5, with above 10 µg/mL.
For the molecule B6, the “pseudovirus neutralization IC50” value is above 10 µg/mL.
On the same count and under the same terms, in the case of B7 it was above 10 µg/mL; in that of B8, above 10 µg/mL.
Same read-out and setting: in the case of B9 it was above 10 µg/mL.
Still for that read-out and setting: then B10, with above 10 µg/mL; and B11, with above 10 µg/mL; and B12, with above 10 µg/mL.
With B13, the “pseudovirus neutralization IC50” value was above 10 µg/mL.

A further test addresses SARS-CoV-2 early D614G spike pseudovirus. Described as above. The method, then: as §1
Regarding B1, the “pseudovirus neutralization IC50” value is above 10 µg/mL.
B2: the “pseudovirus neutralization IC50” value came out at 0.782 µg/mL.
Same read-out and setting: in the case of B3 it was 0.144 µg/mL; in that of B4, 0.0548 µg/mL; in that of B5, above 10 µg/mL.
The same measure, in the same setting: then B6, with 0.719 µg/mL; and B7, with 0.154 µg/mL.
Still for that read-out and setting: in the case of B8 it was 0.0443 µg/mL.
As to B9, the “pseudovirus neutralization IC50” value was found to be 0.00298 µg/mL.
Still for that read-out and setting: in the case of B10 it was 0.00565 µg/mL; in that of B11, above 10 µg/mL.
The same measure, in the same setting: in the case of B12 it was 0.0291 µg/mL; in that of B13, 0.0664 µg/mL.
